Results of unrelated studies side by side (data: NIAID ChemDB).

Common to all: host cell toxicity; cells: MT-4; endpoint: CC50

Neighbouring rows are from separate reports.

SMILES | method | result
COCP(=O)(O)OC[C@H]1O[C@@H](n2cc(C)c(=O)[nH]c2=O)C[C@@H]1N=[N+]=[N-] | MTT | >500 µM
COc1cc(Cc2cnc(/N=C3\C(=O)N(CN4CCN(c5ccc(Cl)cc5)CC4)c4ccc(C)cc43)nc2N)cc(OC)c1OC | - | 49.2 µM
NC(=O)C[C@H](NC(=O)CNC1c2ccc3cc4c5c6c(cc7ccc8cc9cc1c1c9c9c8c7c6c9c6c1c2c3c56)C4)C(=O)O | trypan blue | >700 µM
Cc1ccc(C(=O)Nc2cccc(C(=O)Nc3ccc(S(=O)(=O)O)c4cc(S(=O)(=O)O)cc(S(=O)(=O)O)c34)c2)cc1NC(=O)Nc1cc(C(=O)Nc2cccc(C(=O)Nc3ccc(S(=O)(=O)O)c4cc(S(=O)(=O)O)cc(S(=O)(=O)O)c34)c2)ccc1C | - | >500 µg/mL
CCCCCCCC/C=C\CCCCC(CCC(=O)O)NC1c2ccc3cc4c5c6c(cc7ccc8cc9cc1c1c9c9c8c7c6c9c6c1c2c3c56)C4 | trypan blue | >1000 µM
Nc1nc(NC2CC2)c2ncn([C@H]3C[C@@H](OCP(=O)(O)O)CO3)c2n1 | MTT / absorbance | >338 µM
Cc1c(Sc2ccccc2)n(COCCNC(=O)c2ccccc2)c(=O)[nH]c1=O | - | >1 µM
CCOC(=O)c1[nH]c2ccccc2c1Sc1ccccc1N | - | ≥200 µM
COc1cc(Cc2cnc(/N=C3\C(=O)N(CN4CCN(c5ccc6c(c5F)c(=O)c(C(=O)O)cn6C5CC5)CC4)c4ccc(C)cc43)nc2N)cc(OC)c1OC | - | 86.1 µM
Cc1cc(C)c(C(=O)Nc2ccc(S(=O)(=O)O)c3cc(S(=O)(=O)O)cc(S(=O)(=O)O)c23)c(C)c1NC(=O)c1cccc(NC(=O)Nc2cccc(C(=O)Nc3c(C)cc(C)c(C(=O)Nc4ccc(S(=O)(=O)O)c5cc(S(=O)(=O)O)cc(S(=O)(=O)O)c45)c3C)c2)c1 | - | >500 µg/mL
CCc1c(Sc2ccccc2)n(C/C=C/c2cc3ccccc3o2)c(=O)[nH]c1=O | - | >1 µM
Cc1ccc(C(=O)Nc2ccc(S(=O)(=O)O)c3cc(S(=O)(=O)O)cc(S(=O)(=O)O)c23)cc1NC(=O)c1ccc(NC(=O)Nc2ccc(C(=O)Nc3cc(C(=O)Nc4ccc(S(=O)(=O)O)c5cc(S(=O)(=O)O)cc(S(=O)(=O)O)c45)ccc3C)cc2)cc1 | - | >50 µg/mL
CC1(C)c2nc(C(=O)NCc3ccc(F)cc3)c(O)c(=O)n2CCN1Cc1cscn1 | microscopy | >1 µM
CCCOC(=O)[C@H](Cc1ccccc1)NP(=O)(CO[C@H]1CO[C@@H](n2cc(C)c(N)nc2=O)C1)N[C@@H](Cc1ccccc1)C(=O)OCCC | MTT / absorbance | 85.5 µM
CC(/C=C/C=C\C=C\C=C(/C)C(=O)NC(C)CO)=C\C(C)C(O)/C(C)=C/C(C)CCc1ccccc1 | - | 102 µM
Cc1ccc(C(=O)Nc2cc(C(=O)Nc3cc(C(=O)Nc4ccc(S(=O)(=O)O)c5cc(S(=O)(=O)O)cc(S(=O)(=O)O)c45)ccc3C)ccc2C)cc1NC(=O)Nc1cc(C(=O)Nc2cc(C(=O)Nc3cc(C(=O)Nc4ccc(S(=O)(=O)O)c5cc(S(=O)(=O)O)cc(S(=O)(=O)O)c45)ccc3C)ccc2C)ccc1C | - | >50 µg/mL
COc1cc(Cc2cnc(/N=C3\C(=O)N(CN4CCCCC4)c4ccc(C)cc43)nc2N)cc(OC)c1OC | - | 124.6 µM
CC(C)CN(C[C@@H](O)[C@H](Cc1ccc(F)cc1)NC(=O)O[C@H]1C2COC3OCC1C3C2)S(=O)(=O)c1ccc2nc(NC3CC3)sc2c1 | - | 11 µM
Nc1nc2c(ncn2[C@H]2CO[C@@H](CCP(=O)(O)O)O2)c(=O)[nH]1 | - | 90 µg/mL
COc1cc(Cc2cnc(/N=C3\C(=O)N(CN4CCN(c5ccccn5)CC4)c4ccc(C)cc43)nc2N)cc(OC)c1OC | - | 119.6 µM
Cc1cn(N2C[C@H](CO)[C@H]2CO)c(=O)[nH]c1=O | - | >100 µg/mL
CC1(C)NCCn2c1nc(C(=O)NCc1ccc(F)cc1)c(O)c2=O | microscopy | >1 µM
Cc1cn([C@H]2C[C@H](N=[N+]=[N-])[C@@H](CO)S2)c(=O)[nH]c1=O | - | >100 µM
CCc1c(C(=O)c2cccc(C#N)c2)n(Cc2cccc(C#N)c2)c(=O)[nH]c1=O | - | >100 µM
O=C1Nc2ccc(Cl)cc2Sc2c1[nH]c1ccccc21 | - | 22 µM
Cc1cn([C@H]2C[C@H](O)[C@@H](CO)S2)c(=O)[nH]c1=O | - | 1 µM
Nc1ccn([C@H]2C[C@H]3OC[C@@H](O)[C@H]3O2)c(=O)n1 | - | >100 µM
Cc1ccc(S(=O)(=O)NC(Cc2ccccc2)c2nnc(Nc3ccc(Br)cc3)s2)cc1 | MTT | >1.58 µg/mL
CCCOC(=O)[C@H](Cc1ccccc1)NP(=O)(CO[C@H]1CO[C@@H](n2cnc3c(N)nc(N)nc32)C1)N[C@@H](Cc1ccccc1)C(=O)OCCC | MTT / absorbance | 61.4 µM
CCCOCn1c(C(F)c2cccc(C#N)c2)c(CC)c(=O)[nH]c1=O | - | >100 µM
Cc1c(Sc2ccccc2)n(COCCN(C(=O)c2ccccc2)C(=O)c2ccccc2)c(=O)[nH]c1=O | - | >1 µM
CN(C)CC1NCCn2c1nc(C(=O)NCc1ccc(F)cc1)c(O)c2=O | microscopy | >1 µM
Cc1c(Sc2ccccc2)n(COCCNC(=O)CCP(=O)(O)O)c(=O)[nH]c1=O | - | >1 µM
Cn1nnc(CN2CCn3c(nc(C(=O)NCc4ccc(F)cc4)c(O)c3=O)C2(C)C)n1 | microscopy | >1 µM
COc1cc(/C=C/C(=O)OCCCc2ccc(O[C@@H](COC(=O)/C=C/c3ccc(O)c(OC)c3)[C@@H](OC)c3ccc(O)c(OC)c3)c(OC)c2)ccc1O | luminescence | >10 µM
CC1(C)c2nc(C(=O)NCc3ccc(F)cc3)c(O)c(=O)n2CCN1CCN1CCOCC1 | microscopy | >1 µM
Cc1cn([C@H]2C[C@@H](OCP(=O)(O)O)CO2)c(=O)[nH]c1=O | MTT / absorbance | 297 µM
CCc1c(Sc2ccccc2)n(C/C=C/c2cccs2)c(=O)[nH]c1=O | - | >1 µM
Cc1cn([C@H]2C[C@H](N=[N+]=[N-])[C@@H](COP(=O)(O)CCl)O2)c(=O)[nH]c1=O | MTT | 300 µM
O=C1Nc2ccc(Cl)cc2Sc2c1[nH]c1ccc(Cl)cc21 | - | 200 µM
CC(C)CN(C[C@@H](O)[C@H](Cc1cccc(F)c1)NC(=O)O[C@H]1C2COC3OCC1C3C2)S(=O)(=O)c1ccc2nc(NC3CC3)sc2c1 | - | 38 µM
Cc1c(Sc2ccccc2)n(C/C=C/c2cccnc2)c(=O)[nH]c1=O | - | >1 µM
O=C(c1c(O)cc(O)cc1O)c1c(-c2ccc(O)cc2)oc2cc(O)c3c(c12)O[C@H](c1ccc(O)cc1)CC3 | - | 61 µg/mL
O=c1[nH]c(=O)n([C@@H]2C[C@H](O)[C@@H](CO)S2)cc1/C=C/Br | - | >500 µM
CCOCn1c(Cc2ccccc2)c(C(C)C)c(=O)[nH]c1=O | - | >100 µM
NC(=O)c1[nH]c2ccc(Cl)cc2c1S(=O)(=O)c1ccccc1 | - | 200 µM
Cc1c(Sc2ccccc2)n(COCCSc2ccccn2)c(=O)[nH]c1=O | - | >1 µM
Nc1ccn([C@H]2CC[C@@H](CO)O2)c(=O)n1 | - | 38 µg/mL
Cc1c(Sc2ccccc2)n(C/C=C/c2ccco2)c(=O)[nH]c1=O | - | >1 µM
Cc1cn([C@H]2C[C@H](N=[N+]=[N-])[C@@H](CO)O2)c(=O)[nH]c1=O | MTT | 140 µM

For reference, 7 entries again:

| SMILES | method | result |
|---|---|---|
| CC(/C=C/C=C\C=C\C=C(/C)C(=O)NC(C)CO)=C\C(C)C(O)/C(C)=C/C(C)CCc1ccccc1 | - | 102 µM |
| Cc1ccc(C(=O)Nc2cc(C(=O)Nc3cc(C(=O)Nc4ccc(S(=O)(=O)O)c5cc(S(=O)(=O)O)cc(S(=O)(=O)O)c45)ccc3C)ccc2C)cc1NC(=O)Nc1cc(C(=O)Nc2cc(C(=O)Nc3cc(C(=O)Nc4ccc(S(=O)(=O)O)c5cc(S(=O)(=O)O)cc(S(=O)(=O)O)c45)ccc3C)ccc2C)ccc1C | - | >50 µg/mL |
| CCCCCCCC/C=C\CCCCC(CCC(=O)O)NC1c2ccc3cc4c5c6c(cc7ccc8cc9cc1c1c9c9c8c7c6c9c6c1c2c3c56)C4 | trypan blue | >1000 µM |
| Nc1nc(NC2CC2)c2ncn([C@H]3C[C@@H](OCP(=O)(O)O)CO3)c2n1 | MTT / absorbance | >338 µM |
| CCCOCn1c(C(F)c2cccc(C#N)c2)c(CC)c(=O)[nH]c1=O | - | >100 µM |
| CN(C)CC1NCCn2c1nc(C(=O)NCc1ccc(F)cc1)c(O)c2=O | microscopy | >1 µM |
| CC(C)CN(C[C@@H](O)[C@H](Cc1cccc(F)c1)NC(=O)O[C@H]1C2COC3OCC1C3C2)S(=O)(=O)c1ccc2nc(NC3CC3)sc2c1 | - | 38 µM |

An empty or dashed field is not shown. CCn is the concentration with n% toxicity to the cells.